Data as given in PubChem BioAssay AID1259414 (Drosophila RNAi Screening Center, 2018)

Screen: 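Fly genes that alter Wolbachia amount inside host cells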 (primary screen)
Cells: Drosophila JW18 cells infected with Wolbachia
Reagents: long dsRNA against Drosophila genes, 0.25 µg dsRNA per well of a 384-well plate
Time to read-out: 5 days
Conditions: cells persistently infected with Wolbachia before knock-down; no added drug
Read-out: 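Automated imaging of bacterial rRNA staining divided by host cell count, reported as plate-normalised robust z-score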
Reading the numbers: Wolbachia per cell robust z: higher = more Wolbachia per host cell than the plate typical
Hit rule: 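Active if absolute robust z reaches 1.5 in two or more of three replicates, leaving out multi- or no-target dsRNAs, genes unexpressed in JW18 and A1 wells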
The deposit covers about 24,000 reagents; below is a random part of those that have a named target and a result. In the full data, about 1,210 (5%) were called active. 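Inactive calls also include excluded dsRNAs with several or no targets, genes unexpressed in JW18, and well A1, regardless of score.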 Names joined by + are all predicted targets of the reagent.

predicted target,DRSC id,"Wolbachia per cell robust z, rep 1","Wolbachia per cell robust z, rep 2","Wolbachia per cell robust z, rep 3",outcome
"Arpc2 (Actin-related protein 2/3 complex, subunit 2)",DRSC02113,0.031,-1.91,-0.456,inactive
Cubn2 (Cubilin 2),DRSC10561,0.631,0.0105,0.0532,inactive
Cubn2 (Cubilin 2),DRSC22044,-0.239,0.344,-1.42,inactive
ari-2 (ariadne 2),DRSC04672,0.31,-0.525,0.337,inactive
ari-2 (ariadne 2),DRSC27896,-5.08,-0.277,1.67,inactive
GstE14 (Glutathione S transferase E14),DRSC06881,0.229,0.48,-2.04,inactive
GstE14 (Glutathione S transferase E14),DRSC26779,-6.61,1.08,0.0571,inactive
nan (nanchung),DRSC10551,-1.97,-1.51,-10.9,inactive
Pph13 (PvuII-PstI homology 13),DRSC23162,-0.0934,0.0506,0.37,inactive
Pph13 (PvuII-PstI homology 13),DRSC29483,0.37,-0.155,1.54,inactive
CG42822,DRSC38816,-0.737,0.516,0.694,inactive
CG9981,DRSC20225,1.74,-0.799,0.166,inactive
CG13364,DRSC17898,-0.125,1.03,-0.197,inactive
CG13364,DRSC21263,0.626,1.03,-0.411,inactive
CG13364,DRSC26743,0.281,-2.38,-1.78,active
CG9628,DRSC11082,0.81,-3.18,1.05,inactive
CG9628,DRSC26359,-0.131,0.34,-7.18,inactive
EDTP (Egg-derived tyrosine phosphatase),DRSC07409,-0.000411,-0.033,-0.51,inactive
CG42663,DRSC06158,0.203,-0.672,-0.121,inactive
CG42663,DRSC06404,-0.879,-0.176,0.206,inactive
CG42663,DRSC23788,0.974,1.21,-1.08,inactive
CG10559,DRSC14255,0.823,0.384,-5.89,inactive
CG10559,DRSC29876,-0.211,1.79,-9.29,inactive
Targ1 (Terminal ADP-ribose protein glycohydrolase 1),DRSC11616,0.422,1.86,-0.644,inactive
Targ1 (Terminal ADP-ribose protein glycohydrolase 1),DRSC41485,0.513,-0.439,-1.41,inactive
CG43235,DRSC40529,0.562,0.741,-1.1,inactive
CG34160,DRSC38919,-0.384,-0.37,-0.478,inactive
Smr (Smrter),DRSC22986,1.59,1.55,-6.46,active
Smr (Smrter),DRSC25781,1.03,2.37,4.4,active
CG15199,DRSC19646,1.06,1.08,0.998,inactive
BomS5 (Bomanin Short 5),DRSC22306,0.368,0.407,0.505,inactive
Cyp49a1 (Cytochrome P450 49a1),DRSC06737,0.137,-5.5,0.0238,inactive
Cyp49a1 (Cytochrome P450 49a1),DRSC07367,0.0472,-0.254,0.0715,inactive
CG18233,DRSC10308,0.97,-1.27,1.02,inactive
CG34258,DRSC38685,-0.464,-0.176,-0.607,inactive
CG31924,DRSC00689,-4.86,-1.02,-1.37,inactive
Mctp (Multiple C2 domain and transmembrane region protein),DRSC06510,-0.172,-1.05,0.368,inactive
Mctp (Multiple C2 domain and transmembrane region protein),DRSC22896,0.252,-4.01,1.12,inactive
Mctp (Multiple C2 domain and transmembrane region protein),DRSC25505,-0.174,-0.849,0.111,inactive
Mctp (Multiple C2 domain and transmembrane region protein),DRSC28921,-1.46,-3.44,-1.9,active
CG8010,DRSC20072,-1.41,0.258,0.669,inactive
CG8010,DRSC26277,-2.4,-0.277,-0.35,inactive
CG10341,DRSC02040,0.365,1.05,-0.364,inactive
lt (light),DRSC03759,-0.703,-1.04,-0.587,inactive
CG7049,DRSC08587,-0.638,-0.719,-1.51,inactive
CG7049,DRSC26356,-0.532,-0.0802,0.305,inactive
croc (crocodile),DRSC11884,0.157,1.24,1.97,inactive
croc (crocodile),DRSC29346,0.708,-0.957,-0.141,inactive
CG15022,DRSC08476,0.0443,-0.858,1.31,inactive
CG15022,DRSC25079,1.33,-0.986,-0.0825,inactive
CG6184,DRSC15986,-3.83,-4.58,0.554,inactive
CG31468,DRSC13637,0.146,1.05,0.368,inactive
CG11911,DRSC00331,0.541,0.292,1.02,inactive
CG11911,DRSC27293,-0.125,1.1,0.415,inactive
Rh7 (Rhodopsin 7),DRSC10529,0.712,0.05,0.601,inactive
Rh7 (Rhodopsin 7),DRSC28331,-1.58,0.125,0.751,inactive
amos (absent MD neurons and olfactory sensilla),DRSC03484,-0.207,-0.0364,1.23,inactive
amos (absent MD neurons and olfactory sensilla),DRSC24784,0.551,-0.702,-0.0225,inactive
amos (absent MD neurons and olfactory sensilla),DRSC38945,1.4,0.48,0.456,inactive
mRpL20 (mitochondrial ribosomal protein L20),DRSC09828,-0.627,0.127,0.352,inactive
Hydr1 (alpha/beta hydrolase 1),DRSC07063,0.846,0.724,-0.386,inactive
BuGZ (Bub3 interacting GLEBS and Zinc finger domain protein),DRSC02642,-1.82,-2.21,-1.15,active
BuGZ (Bub3 interacting GLEBS and Zinc finger domain protein),DRSC02643,-1.1,-0.217,-0.353,inactive
BuGZ (Bub3 interacting GLEBS and Zinc finger domain protein),DRSC25285,-2.91,0.424,-0.052,inactive
BuGZ (Bub3 interacting GLEBS and Zinc finger domain protein),DRSC36510,1.44,1.01,2.6,inactive
BuGZ (Bub3 interacting GLEBS and Zinc finger domain protein),DRSC36511,-1.84,-0.571,0.0885,inactive
Nprl2 (Nitrogen permease regulator-like 2),DRSC20153,-2.22,-0.0604,-0.0038,inactive
CG14414,DRSC19599,-4,-2.35,-0.157,active
CG32263,DRSC22431,0.828,-5.52,1.23,inactive
CG32263,DRSC29009,-0.0565,-0.424,0.243,inactive
ERp44 (Endoplasmic reticulum protein 44),DRSC20215,-0.381,1.21,1.5,inactive
CG8476,DRSC16426,-2.99,-0.101,1.27,inactive
CG8476,DRSC27865,1.11,-0.062,0.536,inactive
CG42486 + CG14933,DRSC26454,-1.85,-0.489,0.37,inactive
l(3)neo43 (lethal (3) neo43),DRSC14988,-0.0392,0.52,0.0587,inactive
CG32099,DRSC21352,-0.0804,-0.0605,-0.789,inactive
NT1 (Neurotrophin 1),DRSC08530,-9.05,-0.704,-5.79,inactive
NT1 (Neurotrophin 1),DRSC22895,-2.01,-2.21,-0.872,inactive
wa-cup (walker cup),DRSC12511,-0.151,-3.34,-1.13,inactive
CG14130,DRSC10134,-0.0871,-0.00206,-0.736,inactive
CG5024,DRSC15698,0.555,0.701,-0.0448,inactive
CG12868,DRSC06207,-0.0639,0.587,-0.288,inactive
CG12868,DRSC26377,-0.869,-1.27,-0.0694,inactive
Ppr-Y,DRSC20892,1.69,-0.736,-1.49,inactive
CG13931,DRSC08400,-0.361,1.04,0.766,inactive
CG13931,DRSC25534,0.842,0.183,-0.918,inactive
RpL36 (Ribosomal protein L36),DRSC18708,3.22,2.93,4,active

Reformatted: entries from further up
CG32263 [DRSC22431]
- Wolbachia per cell robust z, rep 1: 0.828
- Wolbachia per cell robust z, rep 2: -5.52
- Wolbachia per cell robust z, rep 3: 1.23
- outcome: inactive

CG32263 [DRSC29009]
- Wolbachia per cell robust z, rep 1: -0.0565
- Wolbachia per cell robust z, rep 2: -0.424
- Wolbachia per cell robust z, rep 3: 0.243
- outcome: inactive

ERp44 (Endoplasmic reticulum protein 44) [DRSC20215]
- Wolbachia per cell robust z, rep 1: -0.381
- Wolbachia per cell robust z, rep 2: 1.21
- Wolbachia per cell robust z, rep 3: 1.5
- outcome: inactive

CG8476 [DRSC16426]
- Wolbachia per cell robust z, rep 1: -2.99
- Wolbachia per cell robust z, rep 2: -0.101
- Wolbachia per cell robust z, rep 3: 1.27
- outcome: inactive

CG8476 [DRSC27865]
- Wolbachia per cell robust z, rep 1: 1.11
- Wolbachia per cell robust z, rep 2: -0.062
- Wolbachia per cell robust z, rep 3: 0.536
- outcome: inactive

CG42486 + CG14933 [DRSC26454]
- Wolbachia per cell robust z, rep 1: -1.85
- Wolbachia per cell robust z, rep 2: -0.489
- Wolbachia per cell robust z, rep 3: 0.37
- outcome: inactive

l(3)neo43 (lethal (3) neo43) [DRSC14988]
- Wolbachia per cell robust z, rep 1: -0.0392
- Wolbachia per cell robust z, rep 2: 0.52
- Wolbachia per cell robust z, rep 3: 0.0587
- outcome: inactive

CG32099 [DRSC21352]
- Wolbachia per cell robust z, rep 1: -0.0804
- Wolbachia per cell robust z, rep 2: -0.0605
- Wolbachia per cell robust z, rep 3: -0.789
- outcome: inactive

NT1 (Neurotrophin 1) [DRSC08530]
- Wolbachia per cell robust z, rep 1: -9.05
- Wolbachia per cell robust z, rep 2: -0.704
- Wolbachia per cell robust z, rep 3: -5.79
- outcome: inactive

NT1 (Neurotrophin 1) [DRSC22895]
- Wolbachia per cell robust z, rep 1: -2.01
- Wolbachia per cell robust z, rep 2: -2.21
- Wolbachia per cell robust z, rep 3: -0.872
- outcome: inactive

wa-cup (walker cup) [DRSC12511]
- Wolbachia per cell robust z, rep 1: -0.151
- Wolbachia per cell robust z, rep 2: -3.34
- Wolbachia per cell robust z, rep 3: -1.13
- outcome: inactive

CG14130 [DRSC10134]
- Wolbachia per cell robust z, rep 1: -0.0871
- Wolbachia per cell robust z, rep 2: -0.00206
- Wolbachia per cell robust z, rep 3: -0.736
- outcome: inactive

CG5024 [DRSC15698]
- Wolbachia per cell robust z, rep 1: 0.555
- Wolbachia per cell robust z, rep 2: 0.701
- Wolbachia per cell robust z, rep 3: -0.0448
- outcome: inactive
